Data taken from US9463216B2 (priority 2012, dated 2016).

Amino acid sequences for entries named in this document (tags omitted). A change or cut given only in a name is not applied to a line headed by its entry.
UniProt P13423: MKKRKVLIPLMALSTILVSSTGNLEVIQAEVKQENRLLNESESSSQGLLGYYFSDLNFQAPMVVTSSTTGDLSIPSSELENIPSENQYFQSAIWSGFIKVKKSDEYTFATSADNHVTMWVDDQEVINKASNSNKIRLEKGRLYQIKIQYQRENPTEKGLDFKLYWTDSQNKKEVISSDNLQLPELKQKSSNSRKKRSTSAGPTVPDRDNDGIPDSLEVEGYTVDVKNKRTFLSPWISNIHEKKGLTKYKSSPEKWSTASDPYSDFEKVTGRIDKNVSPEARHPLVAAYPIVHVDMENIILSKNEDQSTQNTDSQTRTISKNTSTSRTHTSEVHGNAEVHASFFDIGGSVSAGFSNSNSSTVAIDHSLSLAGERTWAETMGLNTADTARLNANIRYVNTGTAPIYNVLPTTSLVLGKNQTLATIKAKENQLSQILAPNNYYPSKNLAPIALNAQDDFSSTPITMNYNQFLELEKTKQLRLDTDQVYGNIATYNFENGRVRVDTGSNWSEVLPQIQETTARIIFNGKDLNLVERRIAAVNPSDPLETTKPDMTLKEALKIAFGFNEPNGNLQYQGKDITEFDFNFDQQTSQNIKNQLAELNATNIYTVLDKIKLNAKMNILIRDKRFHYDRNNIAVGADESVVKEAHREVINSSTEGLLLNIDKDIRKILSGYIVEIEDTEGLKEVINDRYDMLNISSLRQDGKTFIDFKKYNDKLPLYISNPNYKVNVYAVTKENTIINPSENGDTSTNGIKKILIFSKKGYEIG

Biological target: lethal toxin (PA + LF) (Bacillus anthracis, UniProt P13423)
Assay: Inhibition of lethal toxin (LT)-mediated cytolysis in bone-marrow macrophage cells, lactate dehydrogenase release assay

In the case of poly-γ-D-glutamic acid, the “inhibitory activity (LT-mediated cytotoxicity) after cleavage by Cap D” value (compound pretreated with Cap D) was “reversible by digestion with Cap D” and the “inhibit LT-mediated cytolysis in bone marrow macrophage cells” value (natively purified compounds) was “not”.
